PubChem BioAssay AID298 (DTP/NCI, 2004)
Where “and” joins values, the source holds several entries; their conditions need not be identical. Identical values can stand only once. Results filed as inconclusive are left out.

Test system: MX-1 breast xenograft, intrarenal, nude mice, tumor weight
Assay: NCI In Vivo Anticancer Drug Screen. Data for tumor model Human Mammary Carcinoma MX-1 Xenograft (intrarenal inoculation) in NU/NU BALB/C (nude) mice
Details: endpoint: mean tumor weight change, schedule: Q04DX003 (ip), vehicle: saline, higher = larger tumour
Protocol: The antitumor activity of compounds was measured in mice bearing transplantable tumors. Survival or tumor size were measured and the results are expressed as the measurement made in the treated group (T) divided by the measurement made in the vehicle treated control group (C). The tumor model used in this assay is Human Mammary Carcinoma MX-1 Xenograft (intrarenal inoculation) in NU/NU BALB/C (nude) mice

With `O=P1(N(CCCl)CCCl)NC(SCCS(=O)(=O)O)CCO1` (centres undefined) the T/C (dose: 37.5 mg/kg/injection) was 1 % of control, the T/C (dose: 75.0 mg/kg/injection) was -81 % of control and the T/C (dose: 150.0 mg/kg/injection) was -100 % of control and -83 % of control. The T/C (dose: 300.0 mg/kg/injection) was -95 % of control.
